Laboratory results from PMC10654194.

Tested on: RBP42
Assay: EMSA
Conditions: recombinant protein

Sequence: GCGACUCGCCAAGAAGCACAACGUGCACCUCCCCAUAUGCCAUGAGGUCUACA [target RNA (Fig. 2E)]
- binding result: binds

The exact form of at least one protein or probe is not confirmed.
